Results of unrelated studies side by side (data: NIAID ChemDB).

Common to all: growth or infection tests; species: Human cytomegalovirus; read-out: EC50

ECn is the concentration giving n% inhibition of infection, replication or growth. An empty or dashed field is not shown. Neighbouring rows are from separate reports. a–b is a range or a potency band.

SMILES	strain	changes	cells	method	value
CCCCN(CC)C(=O)Nc1ccc(-c2csc(NOC(=O)OC(C)(C)C)n2)cc1	AD169	-	HS68	plaque count / crystal violet	2 µM
CO[C@H]1C[C@H](n2cc(/C=C/Br)c(=O)[nH]c2=O)O[C@@H]1COP1(=O)OCc2cccc(C)c2O1	AD169	-	HELF	plaque count	>64 µg/mL
Cn1cc(C(=O)NCc2ccc(Cl)cc2)c(=O)c2cc(CN3CCOCC3)ccc21	AD169	-	VERO	plaque count	0.4 µM
Nc1nc2c(ncn2COC(CO)CO)c(=O)[nH]1	P8 ganciclovir-sensitive	-	MRC-5	plaque count	2.5 µg/mL
Nc1nc2c(ncn2COC(CO)CO)c(=O)[nH]1	C8910	-	MRC-5	hybridisation	0.7 µM
Nc1ccn(C=C2C[C@H]2CO)c(=O)n1	AD169	-	HFF	plaque count	9.8 µM
NC1=NC2C(C=CN2CC(CO)CCO)C(=O)N1	-	-	VERO	cytopathic effect	10–100 µM
O=C1c2ccccc2C(=O)N1C1CC2CC3CC(C2)CC1C3	DAVIS	-	HEL	plaque count	>100 µg/mL
Nc1ncc2ncn(C[C@@H]3CC[C@H](P(=O)(O)O)O3)c2n1	-	-	WI-38	plaque count	>50 µg/mL
OC[C@H]1O[C@H](c2cc(I)c(F)cc2F)C[C@@H]1O	DAVIS	-	HEL	cytopathic effect	125 µM
[O-][n+]1onc2ncnc(N3CC[N+]4(CC3)CC[N+]3(CCN(c5ncnc6no[n+]([O-])c56)CC3)CC4)c21	Clinical isolate	Ganciclovir-sensitive	HELF	plaque count	0.16 µM
O=C1c2cccc([N+](=O)[O-])c2C(=O)N1C12CC3CC(CC(C3)C1)C2	AD169	-	HEL	plaque count	>20 µg/mL
O=c1[nH]c(=O)n([C@H]2C[C@H](O)[C@@H](COP3(=O)OCc4c(ccc5ccccc45)O3)O2)cc1/C=C/Br	AD169	-	HELF	plaque count	>128 µg/mL
CC(C)(C)OC(=O)[C@H](Cc1ccccc1)NC(=O)Nc1ccc(-c2csc(N)n2)cc1	AD169	-	HS68	ELISA	>4 µM
O=C(NCCc1ccccc1)C1=Cc2ccncc2CC1	AD169	-	HS68	plaque count	2.4 µM
CCCCCCCCCCCCCCCCCCOC[C@H](COP(=O)(O)CO[C@H](CO)Cn1ccc(N)nc1=O)OCc1ccccc1	759rD100	-	HFF	plaque count	0.2 µM
O=C(NCc1ccc(Cl)cc1)c1c[nH]c2ccc(CCCO)cc2c1=O	AD169	-	-	plaque count	0.8 µM
Nc1ccn([C@H]2O[C@@H](CO)[C@H](O)[C@@H]2O)c(=O)n1	WF1	-	FLOW 2002	plaque count	>100 µg/mL
OC[C@@H]1O[C@H](n2c(Br)nc3cc(Cl)c(Cl)cc32)[C@@H](O)[C@H]1O	AD169	-	MRC-5	virus yield	0.5 µM
OC[C@H]1O[C@@H](c2cc(C(F)(F)F)c(F)cc2F)C[C@@H]1O	AD169	-	HEL	cytopathic effect	>200 µM
O=C1c2ccccc2C(=O)N1CC1C2CC3CC(C2)CC1C3	AD169	-	HEL	plaque count	>20 µg/mL
CCCCCCCCCCCCCCCCCCOCCOP(=O)(O)CO[C@H](CO)Cn1ccc(N)nc1=O	DAVIS	-	MRC-5	plaque count	0.0009 µM
Nc1ccn([C@@H]2CC[C@H](CO)O2)c(=O)n1	WF1	-	FLOW 2002	plaque count	10 µg/mL
Nc1nc(-c2ccc(NC(=O)CCN(Cc3ccccc3)C(=O)C3Cc4ccccc4C3)cc2)cs1	AD169	-	HS68	ELISA	15 µM
Nc1nc2c(ncn2COC(CO)CO)c(=O)[nH]1	-	-	NHDF	plaque count	20 µM
COc1cccc(N2CCN(C3=Nc4c(F)cccc4[C@H](CC(=O)O)N3c3cc(C(F)(F)F)ccc3OC)CC2)c1	Clinical isolate 4	-	-	plaque count	0.002 µM
Cc1cc([C@H]2C[C@H](O)[C@@H](CO)O2)c(Cl)cc1F	DAVIS	-	HEL	cytopathic effect	>200 µM
O=C(O)c1ccccc1C(=O)NC12CC3CC(C1)CC(C(=O)O)(C3)C2	AD169	-	HEL	plaque count	>100 µg/mL
Nc1nc2c(ncn2[C@@H]2C=C[C@H](CO)CC2)c(=O)[nH]1	-	-	VERO	cytopathic effect	1–10 µM
Nc1ncnc2c1ncn2C=C1CC1CO	VR5611 (ganciclovir-susceptible)	-	-	plaque count	1.7 µM
CCCCCCCC/C=C\CCCCCCCOCCOP1(=O)CO[C@@H](Cn2ccc(N)nc2=O)CO1	AD169	-	HFF	plaque count	0.002 µM
Nc1nc2c(ncn2C[C@H]2CC[C@@H](P(=O)(O)O)O2)c(=O)[nH]1	WF1	-	FLOW 2002	plaque count	50 µg/mL
Nc1ccn([C@H]2O[C@@H](CO)[C@H](O)[C@H]2F)c(=O)n1	WF1	-	FLOW 2002	plaque count	>100 µg/mL
Nc1nc2c(ncn2COC(CO)CO)c(=O)[nH]1	BT1943	-	WI-38	plaque count	1.1 µM
Nc1nc(N)c2ncn(C[C@H]3CC[C@H](P(=O)(O)O)O3)c2n1	WF1	-	FLOW 2002	plaque count	65 µg/mL
OC[C@H]1O[C@@H](n2c(Br)nc3cc(Cl)c(Cl)cc32)[C@H](O)[C@@H]1O	EC	-	HFF	plaque count	1 µM
Nc1nc2c(ncn2C=C2CC2CO)c(=O)[nH]1	Coffman	-	HFF	plaque count	6.9 µM
Nc1ncnc2c1ncn2C=C1CC1CO	AD169	-	KB	plaque count	2 µM
Nc1nc2c(ncn2COC(CO)CO)c(=O)[nH]1	-	-	VERO	cytopathic effect	1–10 µM
Nc1nc2c(ncn2COC(CO)CO)c(=O)[nH]1	TOWNE	-	HFF	plaque count	7.2 µM
C#Cc1cn([C@H]2C[C@H](O)[C@@H](CO)O2)c(=O)[nH]c1=O	-	-	VERO	plaque count	0.07 µM
CC(C)Oc1ccccc1CNC(=O)c1ccc2cnccc2n1	AD169	-	HS68	plaque count	0.02 µM
COc1cc(F)c([C@H]2C[C@H](O)[C@@H](CO)O2)cc1[N+](=O)[O-]	DAVIS	-	HEL	cytopathic effect	>200 µM
NC12CC3CC(CC(C3)C1C(=O)c1ccccc1C(=O)O)C2	AD169	-	HEL	plaque count	>100 µg/mL
Nc1nc(NC2CC2)c2ncn(C=C3CC3CO)c2n1	AD169	-	HFF	cytopathic effect	2 µM
CCCCCCCCCCCCCCCCOCCCOP(=O)(O)CO[C@H](CO)Cn1ccc(N)nc1=O	WILD TYPE	-	MRC-5	plaque count	0.0009 µM
O=C(O)P(=O)(O)O	Cidofovir-resistant	-	HEL	plaque count	59.2 µM
Cc1c[nH]c(=O)n(C[C@H]2CS[C@H](P(=O)(O)O)O2)c1=O	WF1	-	FLOW 2002	plaque count	6 µg/mL
O=c1[nH]c(=O)n([C@H]2C[C@H](O)[C@@H](CO[P@]3(=O)OCc4cccc(-c5ccccc5)c4O3)O2)cc1/C=C/Br	AD169	-	HELF	plaque count	>128 µg/mL
Nc1ccn(C[C@@H](CO)OCP(=O)(O)O)c(=O)n1	DER648 (ganciclovir cidofovir-resistant)	-	HEL	plaque count	6.34 µM
Nc1nc2c(ncn2C[C@@H]2CC[C@@H](P(=O)(O)O)O2)c(=O)[nH]1	-	-	WI-38	plaque count	0.1–1 µg/mL
Nc1nc(-c2ccc(NC(=O)CCN(C(=O)c3cccnc3)C3CCc4ccccc43)cc2)cs1	AD169	-	HS68	ELISA	6.5 µM
Cc1cc([C@H]2C[C@H](O)[C@@H](CO)O2)c(F)cc1Cl	AD169	-	HEL	cytopathic effect	>200 µM
Nc1ccn(C[C@H]2COP(=O)(O)CO2)c(=O)n1	C8805/37-1-1 (drug-resistant mutant)	-	MRC-5	plaque count	0.96 µM
Nc1nc2c(ncn2COC(CO)CO)c(=O)[nH]1	WF1	-	FLOW 2002	plaque count	0.1 µg/mL
C[C@H](c1ccccc1)N(CC(=O)Nc1ccc(-c2csc(N)n2)cc1)C(=O)Cc1ccncc1	AD169	-	HS68	plaque count / crystal violet	49 µM
CC/C=C\Cn1c(=O)sc2c(=O)[nH]c(N)nc21	AD169	-	-	plaque count	<4 µM
Nc1ccn(C[C@@H](CO)OCP(=O)(O)O)c(=O)n1	D16 (ganciclovir-resistant)	-	MRC-5	plaque count	13 µg/mL
Nc1nc2c(ncn2C[C@@H]2CC[C@H](P(=O)(O)O)O2)c(=O)[nH]1	-	-	WI-38	plaque count	0.5–1 µg/mL
Nc1ccn(C[C@@H](CO)OCP(=O)(O)O)c(=O)n1	DAVIS	-	HFF	plaque count	0.4 µM
Nc1nc2c(ncn2C[C@@H]2CC[C@H](P(=O)(O)O)O2)c(=O)[nH]1	-	-	WI-38	plaque count	0.5–1 µg/mL
Nc1ccn(C[C@@H](CO)OCP(=O)(O)O)c(=O)n1	DAVIS	-	HELF	plaque count	0.28 µM
Nc1nc(-c2ccc(NC(=O)[C@@H]3CCCN3C(=O)c3ccccc3)cc2)cs1	AD169	-	HS68	ELISA	>33 µM
Nc1nc2c(ncn2C[C@H]2CC[C@@H](P(=O)(O)O)O2)c(=O)[nH]1	-	-	WI-38	plaque count	50 µg/mL
Nc1ncnc2c1ncn2C[C@H]1CS[C@@H](P(=O)(O)O)O1	WF1	-	FLOW 2002	plaque count	60 µg/mL

A second listing of 8 rows from above:

| SMILES | strain | changes | cells | method | value |
|---|---|---|---|---|---|
| Nc1nc2c(ncn2COC(CO)CO)c(=O)[nH]1 | BT1943 | - | WI-38 | plaque count | 1.1 µM |
| Nc1nc(N)c2ncn(C[C@H]3CC[C@H](P(=O)(O)O)O3)c2n1 | WF1 | - | FLOW 2002 | plaque count | 65 µg/mL |
| Nc1ccn(C[C@H]2COP(=O)(O)CO2)c(=O)n1 | C8805/37-1-1 (drug-resistant mutant) | - | MRC-5 | plaque count | 0.96 µM |
| Nc1nc2c(ncn2C[C@@H]2CC[C@H](P(=O)(O)O)O2)c(=O)[nH]1 | - | - | WI-38 | plaque count | 0.5–1 µg/mL |
| Nc1ncnc2c1ncn2C[C@H]1CS[C@@H](P(=O)(O)O)O1 | WF1 | - | FLOW 2002 | plaque count | 60 µg/mL |
| Nc1ccn(C=C2C[C@H]2CO)c(=O)n1 | AD169 | - | HFF | plaque count | 9.8 µM |
| OC[C@H]1O[C@@H](c2cc(C(F)(F)F)c(F)cc2F)C[C@@H]1O | AD169 | - | HEL | cytopathic effect | >200 µM |
| CC(C)(C)OC(=O)[C@H](Cc1ccccc1)NC(=O)Nc1ccc(-c2csc(N)n2)cc1 | AD169 | - | HS68 | ELISA | >4 µM |